Test results: the supplement of paper PMC9931576
Numbering of substitutions follows the chain as printed. Human monoclonal antibodies against the spike receptor-binding domain (heavy:light variable regions). IC50 against pseudoviruses bearing the spike of naturally observed variants; lower = stronger; >10 µg/ml means not reached at the top dose. No active / inactive call. The stated detection limit is 0.0005 µg/ml; values near or below 0.001 µg/ml lie at the floor of the assay.

B1: BD56-697 (protein)
chain 1: QVQLQESGPGLVKPSQTLSLTCTVSGDSISSGGYYWSWIRQRPGKGLEWIGYIYYSGSTYYNPSLESRITISIDTSKNQFSLNLRSVTAADTAVYFCARDAIVVVPAALPEYYGMDVWGQGTTVTVSS
chain 2: SYELTQPPSVSVSPGQTARITCSGDALPKQHAYWYQQKSGQAPVLVIYRDNERPSGIPERFSGSSSGTTVTLTISGVQADDEADYYCQSADSTGIFVWVFGGGTRLTVL
B2: TAU-2189 (protein)
chain 1: EVQLLESGGGLVQPGGSLRLFCAASGFTFSSFAMSWVRQAPGKGLEWVSTISGSGGRTYYADSVKGRFTIFRDNSKNTLYLQMNSLRAEDTALYYCAKDMDIVVVITGDAFDIWGQGTMVTVSS
chain 2: SYELTQPPSVSVSPGQTARITCSGDALPKQYAYWYQQKPGQAPVLVIYKDSERPSGIPERFSGSSSGTTVTLTISGVQAEDEADYYCQSADSSGTYRVFGTGTKVTVL
B3: BD56-712 (protein)
chain 1: EVQLVESGGGLVQPGGSLRLSCAASGFTFSDYSMNWVRQAPGKGLEWISYITSSSTNIYHADSVKGRFTISRDNAKNSLYLQMNSLRAEDTAVYFCARDYDTSGPGDLFDYWGQGTLVTVSS
chain 2: SYVLTQPPSVSVAPGKTARIPCGGDNIGSKSVHWYQQKPGQAPVLVIYYDSDRPSGIPDRFSGSNSGNTATLTISRVEAGDEADYYCQVWDTGRVFGGGTKLTVL
B4: BD56-702 (protein)
chain 1: QVRLVESGGGVVQPGRSLRLSCAASGFSLSRYGIHWVRQAPGKGLEWVAVISFDGSNTYYADSVKGRFTISRDISKNTLYLQMNSLRVEDTAVYFCAKRGAPYCGGDCYASYLDYWGQGTLVTVSS
chain 2: DIQMTQSPSSLSASVGDRVTITCQASQDINNYLNWYQQKPGKAPKLLIYDASNLETGVPSRFSGSGSGIDFTFTITSLQPEDFATYYCQHYYNLPITFGPGTRLEVK
B5: BD56-717 (protein)
chain 1: QVQLVQSGAEVKKPGSSVKVSCKASGGTFSSYAISWVRQAPGQGLEWVGGIVPIFGTSNYAQKFRGRVTITADESTSTAYMELSSLRSEDTAVYYCATWESSHSYPGVDVWGQGTTVTVSS
chain 2: EIVLTQSPGTLSLSPGERATLSCRASQSVSSSYLAWYQQKPGQAPRLLIYGVSSRATGIPDRFSGSGSGTDFTLTISSLEPEDFAVYYCQQYGSVRTFGQGTKLEIK
B6: BD56-708 (protein)
chain 1: EVQLVESGGGLVQPGRSLRLSCAVSGFTFHNYAMHWVRQVPGKGLEWVSGITWNSESRAYADSVKGRFTISRDNAKNFLFLQMNSLRPEDTAFYYCARDISGTYGDYFDYWGQGTLVTVAS
chain 2: SYVLTQPPSVSVAPGQAARITCGGDEIGSKSVHWYQQKPGQAPVLVINYDNDRPSGIPERFSGSNSGNTATLTISRVEAGDEADYYCQVWDSSPDHYVFGTGTKVSVL
B7: BD56-700 (protein)
chain 1: QVQLVQSGAEVKKPGASVRISCKASGYTFTNYYMHWVRQAPGQGLEWMGIINPGGGSTTYAQRFQGRVTMTRGTSTTTVYMELSSLTSEDTAVYYCARGGSPGDNDFWSGNPVHFDPWGQGTLVTVSS
chain 2: KFMLTQPHSVSESPGKTITISCTRSSGSIASDSVQWYQQRPGSAPTIVIYKDNQRPSGVPDRVSGSIDSSSNSATLTISGLKTEDEADYYCQSYDSGNHHWVFGGGTKLTVL
B8: BD56-701 (protein)
chain 1: QVQLQQWGAGLLKPSETLSLTCAVYGGSFSTYYWNWIRQPPGKALEWIGEINQSGSTYYNPSLESRVTISVDTSKTQFSLNLNSVTAADTAIYYCARGGYYDSGSYYNPNFYNDYAMDVWGQGSTVTVSS
chain 2: QAGLTQPPSVSKTLRQTATLTCTGNSNNVGNQGATWLQLHQGHPPKLLSYRNNNRPSGISERFSASRSGNAASLTIAGLQPEDEADYYCSAWDSSLSAWVFGGGTKLTVL
B9: BD56-693 (protein)
chain 1: QVQLVQSGAEVKKPGASVKVSCRASGYIFTSHYMHWVRQAPGQGLEWMGIINPSGGSRRYVQRFQGRVTMTRDTSTSTVYMELSSLTSEDTAVYYCAREGVGATAYFDYWGQGTLVTVSS
chain 2: SYVLTQPPSVSVAPGKTARITCGGNNIGSKSVHWYQQKPGQAPVLVVYDDSDRPSGIPERFSGSNSGNTATLTISRVEAGDEADYFCQVWDGSGDHPGYVFGTGTKVTVL
B10: BD56-695 (protein)
chain 1: QVQLVQSGSELKRPGASVKVSCKASGYTFINYAINWVRQAPGQGLEWMGWINTNTGGPTYAQGFTGRFVLSLDTSVSTAYLQISSLKAEDTAVYYCTRVRLAPVEDWFDPWGQGTLVTVSS
chain 2: B9 chain 2 with R19S, N25D, V47I, Y48F, D49Y, F86Y, G94P, P97Q
B11: BD56-716 (protein)
chain 1: EVHLVESGGGLVQPGRSLRLSCAASGFTFDDYAMHWVRQAPGKGLEWVSGISWNSGSIGYADSVKGRFAISRDNAKNSLYLQMNSLRAADTALYYCAMAQGPSSSDPALYWGQGTQVTVSS
chain 2: DIQMTQSPSSVSASVGDRVTITCRASQDISSWLAWYQQKPGKAPRLLIYLASSLQSGVPSRFSGSGSGTAFTLTISSLQPEDFATYYCQQSNSFPLTFGGGTKVEIK
B12: BD56-692 (protein)
chain 1: QVQLVQSGGEVKKPGASVKVSCKASGYTFTSYGISWVRQAPGQGLEWMGWINTYNGDTNFAQKFQGGVTMTTDTSTRTAYMELRSLRSDDTAVYYCARVSDYYASGSSLYYFDYWGQGTLVTVSS
chain 2: EIVMTQSPATLSVSPGERATLSCKASQSLRSNLAWYQQKPGQAPKVLIYGASTRATGIPARFSGSGSGTEFTLTISSLQSEDFAVYYCQQYDNWPPVWTFGHGTKVEIK

Legend:
Experiment in all cases: pseudovirus neutralization IC50; higher = weaker neutralization
[1] = biological target: SARS-CoV-2 Omicron BA.1 spike pseudovirus
Procedure: (§1)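 Single-round VSV luciferase pseudovirus mixed with antibody dilutions for 1 h and put on Huh-7 cells for about a day; IC50 from the dose curve.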

[2] = biological target: SARS-CoV-2 Omicron BA.2 spike pseudovirus
Procedure: as §1

[3] = biological target: SARS-CoV-2 Omicron BA.2.75 spike pseudovirus
Procedure: as §1

[4] = biological target: SARS-CoV-2 Omicron BA.5 spike pseudovirus
Procedure: as §1

[5] = biological target: SARS-CoV-2 Omicron BQ.1.1 spike pseudovirus
Procedure: as §1

[6] = biological target: SARS-CoV-2 Omicron XBB spike pseudovirus
Procedure: as §1

[7] = biological target: SARS-CoV-2 early D614G spike pseudovirus
Procedure: as §1

Binder | pseudovirus neutralization IC50 [1] [µg/mL] | pseudovirus neutralization IC50 [2] [µg/mL] | pseudovirus neutralization IC50 [3] [µg/mL] | pseudovirus neutralization IC50 [4] [µg/mL] | pseudovirus neutralization IC50 [5] [µg/mL] | pseudovirus neutralization IC50 [6] [µg/mL] | pseudovirus neutralization IC50 [7] [µg/mL]
B1 | > 10 | > 10 | > 10 | > 10 | > 10 | > 10 | > 10
B2 | > 10 | > 10 | > 10 | > 10 | > 10 | > 10 | > 10
B3 | 4.33 | 7.95 | 4.24 | 5.73 | > 10 | 6.16 | > 10
B4 | 1.53 | 2.29 | 2.48 | 2.43 | 2.54 | 2.34 | 1.43
B5 | > 10 | > 10 | > 10 | > 10 | > 10 | > 10 | > 10
B6 | 3.36 | 5.57 | 5.15 | 5.77 | > 10 | > 10 | 4.42
B7 | 0.968 | 2.08 | 1.6 | 2.26 | > 10 | > 10 | 2.1
B8 | 5.22 | 6.91 | 6.13 | 5.67 | 4.2 | 5.89 | 5.37
B9 | > 10 | > 10 | > 10 | > 10 | > 10 | > 10 | > 10
B10 | 6.47 | 7.47 | 6.02 | > 10 | > 10 | 2.33 | 2.15
B11 | 2.24 | 2.63 | 4.54 | 3.27 | 8.22 | 7.87 | 2.48
B12 | 2.03 | 2.12 | 2.59 | 2.81 | > 10 | > 10 | 3.76
